For the test, the target named is SARS-CoV-2 S protein trimer (ACROBiosystems), wild type (SARS-CoV-2, UniProt P0DTC2 16-1213).

B1: EV053272 (antibody, V domains shown)
VH: QVQLVQSGAEVKKPGSSVKVSCKASGGTFSSYAISWVRQAPGQGLKWMGGIIPIFGTAKYAQKFQGRVTITADESTSTAYMELSSLRSEDTAVYYCASGRPVTIGVSSTTGVFDYWGQGTLVTVSS
VL: DIVMTQSPDSLAVSLGERATINCKSRQSVLYSSNNKNYLAWYQQKPGQPPKLLIYWASTRESGVPDRFSGSGSGTDFTLTISSLQAEDVAVYYCQQYYSSPITFGQGTRLEIKR
In turn, B1 showed an EC50 of 0.013 µg/mL.

As usually defined, the EC50 is the midpoint of the concentration-response curve. Higher therefore signals a less potent agent.

Values taken from patent WO2022250107A1, “Human neutralizing antibody against wild-type strain and mutant strain of sars-cov-2, and antigen-binding fragment thereof” (dated 2022).
